This note sets out measurements from publication PMC6081459, “Pathogen-derived HLA-E bound epitopes reveal broad primary anchor pocket tolerability and conformationally malleable peptide binding” (Nature Communications, 2018).

Data set [1] deals with HLA-E-β2m complexes. On the set-up: species or system human. The settings on record: Cf compact form, Df diffuse form.
The test system of data set [2] is HLA-E-β2m complexes. The format is binding, human.

Take RLPAKAPLL [Mtb44]: in the data set with HLA-E-β2m complexes [1], the “BN-PAGE gel signature of complex refolded with peptide” value is “singular, compactly formed bands”. In addition, the “BN-PAGE gel signature after UV-mediated peptide exchange” value in the data set with HLA-E-β2m complexes [2] is “clear Cf signature”. For the sequence RMYSPTSIL [RL9HIV], the “BN-PAGE gel signature of complex refolded with peptide” value in the data set on HLA-E-β2m complexes [1] is given as “resolved heterogeneously as two main bands”. Besides, the “BN-PAGE gel signature after UV-mediated peptide exchange” value with HLA-E-β2m complexes [2] is “both diffuse and compact gel forms”. For the sequence VMAPRTVLL [VL9, reference compound], the “BN-PAGE gel signature of complex refolded with peptide” value in the data set on HLA-E-β2m complexes [1] is “singular, compactly formed bands”.
